Laboratory results: PubChem BioAssay AID624099 (ICCB-Longwood, 2012)
Aim: 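Human genes that papillomavirus E2 requires to repress the HPV18 LCR promoter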 (primary screen). Cell system: human C33A cervical carcinoma cells (HPV-negative) stably expressing BPV1 E2 and an HPV18 LCR luciferase reporter. Knock-down reagent: siRNA pool against human genes, 40 nM. Time to read-out: 72 h. Detection: 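HPV18 LCR reporter light per well, converted to plate-wise z-scores that exclude control wells, and averaged over triplicate plates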. Direction: mean z-score and z-score: higher = stronger reporter signal, weaker E2 silencing. Call rule: 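Mean z ≥ 2 together with z ≥ 2 in two or more of the three replicates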.
This is one part, drawn at random, of about 21,000 deposited reagents. 497 of them (2.4%) were called active. 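Higher z means weaker E2 silencing; only reporter increases were scored, and knock-downs that hurt cell survival may mask genuine repressor factors.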 A number with no mark means an inactive call. Reagents against one gene are numbered here.

Gene	pool no.	mean z-score	z-score, replicate A	z-score, replicate B	z-score, replicate C
VPS37D	1	-1.31	-1.44	-1.25	-1.23
RPL18AP6	1	-0.19	-0.25	0.23	-0.54
TMPRSS11BNL	1	-0.52	-0.79	-0.55	-0.22
GLIDR	1	-1.23	-1.19	-1.04	-1.44
BTN1A1	1	2.13 (active)	2.11	1.99	2.29
OR2M5	1	-0.75	-0.29	-1.03	-0.93
PIGL	1	2.22 (active)	1.75	2.2	2.71
CGN	1	0.37	0.46	0.9	-0.25
HEATR5A	1	1.17	1.22	1.06	1.24
HEATR5A	2	-0.43	-0.26	-0.73	-0.31
JTB	1	0.67	0.32	0.95	0.75
STN1	1	0.42	0.56	0.37	0.32
UBE2A	1	1.11	0.89	1.08	1.36
OR4Q3	1	-0.69	-0.43	-0.67	-0.99
FRMD3	1	-0.14	0.33	-0.22	-0.53
CEP89	1	0.42	0	0.43	0.83
STRN3	1	0.19	-0.09	-0.08	0.73
VIM	1	-0.93	-0.93	-0.96	-0.9
ZNF169	1	0.49	0.64	0.61	0.23
TMEM98	1	-0.21	-0.18	-0.36	-0.09
LOC388593 (retired record)	1	-0.47	-0.35	-0.6	-0.45
DLL1	1	1.73	1.59	1.71	1.89
MRC1	1	-0.23	-0.31	-0.32	-0.07

Entries listed so far whose target name starts with C or c:
Gene	pool no.	mean z-score	z-score, replicate A	z-score, replicate B	z-score, replicate C
CGN	1	0.37	0.46	0.9	-0.25
CEP89	1	0.42	0	0.43	0.83
